Like-named read-outs stand apart in the source and are kept apart here.
Columns and labels:
Experiment in all cases: cell-based or functional assay
[1] = target: T1, SARS-CoV-2 spike protein, D614G variant, on pseudovirus
[2] = target: T2, SARS-CoV-2 spike protein, WH1 variant, on pseudovirus (SARS-CoV-2.SctΔ19)
[3] = target: T1, SARS-CoV-2 spike protein, D614G …; remark: listed apart in the source
[4] = target: T2, SARS-CoV-2 spike protein, WH1 variant, …; remark: listed apart in the source

B1: mAb17T2 (antibody, V domains shown)
VH: QVQLVQSGPEVKKPGTSVKVSCKAPVFTFSISAVQWVRQARGQRLEWIGWIVVGSGNTNYAQNFQERVTITTDMSTGTVYMELSGLRSEDTAMYYCAAPYCNRTTCYDGFDLWGQGTMVTVSS
VL: EIVLTQSPGTLSLSPGERATLSCRASQSISSNYLAWYQQKPGQAPRLLIYGASSRATGIPDRFSGSGSGTDFTLSINRLEPEDFAMYYCQHYGGLSRWTFGQGTKVEIKR
- IC50 (µg/ml), pseudotyped virus neutralization [1]: 0.00792 µg/mL
- IC80 (µg/ml), pseudotyped virus neutralization [1]: 0.0153 µg/mL
- IC90 (µg/ml), pseudotyped virus neutralization [1]: 0.0226 µg/mL
- IC50 (µg/ml), pseudotyped virus neutralization [2]: 0.0406 µg/mL
- IC80 (µg/ml), pseudotyped virus neutralization [2]: 0.0804 µg/mL
- IC90 (µg/ml), pseudotyped virus neutralization [2]: 0.12 µg/mL
- IC50 (µg/ml), pseudotyped virus neutralization [3]: 0.01 µg/mL
- IC50 (µg/ml), pseudotyped virus neutralization [4]: 0.0383 µg/mL
